Anti-infective test results gathered from many reports (values: NIAID ChemDB through PubChem).

Shared fields: whole-cell or culture tests; agent: Herpes simplex virus 2; cell line: MRC-5; endpoint: EC50

ECn is the concentration giving n% inhibition of infection, replication or growth.

SMILES | strain | read by | result
Nc1ccn(C[C@@H](CO)OCP(=O)(O)O)c(=O)n1 | G | plaque count | 18–25 µg/mL
Nc1nc2c(ncn2CCC(CO)CO)c(=O)[nH]1 | 13 isolates | plaque count | 1.5 µg/mL
CCCCCCCCCCCCCCCCOCCCOP(=O)(O)CO[C@H](CO)Cn1ccc(N)nc1=O |  | plaque count | 0.13 µM
O=c1[nH]c(=S)n([C@H]2C[C@H](O)[C@@H](CO)O2)cc1Br | G | plaque count | 1.4 µM
Nc1nc2c(ncn2COCCO)c(=O)[nH]1 | MS | cytopathic effect | 2.5 µg/mL
Nc1nc2c(ncn2CCC(CO)CO)c(=O)[nH]1 |  | plaque count | 12.8 µM
Nc1nc2c(ncn2CCC(CO)CO)c(=O)[nH]1 | 186 | plaque count | 1.2 µg/mL
Nc1nc(=S)n([C@H]2C[C@H](O)[C@@H](CO)O2)cc1Br | G | plaque count | 8.41 µM
O=c1[nH]c(=O)n([C@H]2C[C@H](O)[C@@H](CO)O2)cc1I | G | plaque count | 0.95 µg/mL
Nc1nc(=S)n([C@@H]2O[C@H](CO)[C@@H](O)[C@@H]2O)cc1I | G | plaque count | 26 µM
CCCCCCCCCCCCCCCCOCCCOP(=O)(O)OCC(CO)CCn1cnc2c(=O)[nH]c(N)nc21 |  | plaque count | >153 µM
Nc1nc2c(ncn2OCC2COP(=O)(O)CO2)c(=O)[nH]1 | MS | plaque count | 49 µg/mL
O=c1[nH]cnc2c1ncn2OCCOCP(=O)(O)O | MS | plaque count | >340 µM
Nc1nc2c(ncn2CCC(CO)CO)c(=O)[nH]1 | Clinical isolate | plaque count | 1.2 µg/mL
O=c1[nH]c(=O)n(C[C@]2(CO)C[C@H]2CO)cc1/C=C/Br | 186 | plaque count | 0.12 µg/mL
O=c1[nH]c(=S)n([C@H]2C[C@H](O)[C@@H](CO)O2)cc1Cl | G | plaque count | 72.1 µM
Nc1nc2c(ncn2COC2COP(=O)(O)OC2)c(=O)[nH]1 | Curtis | plaque count | 1–2 µM
Nc1ccn(C[C@@H](CO)OCP(=O)(O)O)c(=O)n1 | 8702 (TK+) | plaque count | 8.3 µM
Nc1ccn(C[C@@H](CO)OCP(=O)(O)O)c(=O)n1 |  | plaque count | 13.2 µM
Nc1nc2c(ncn2COCCO)c(=O)[nH]1 |  |  | 5.3 µM

For reference, 3 entries again:

Nc1nc2c(ncn2COCCO)c(=O)[nH]1 ; strain: MS ; read by: cytopathic effect ; result: 2.5 µg/mL
O=c1[nH]cnc2c1ncn2OCCOCP(=O)(O)O ; strain: MS ; read by: plaque count ; result: >340 µM
Nc1nc(=S)n([C@H]2C[C@H](O)[C@@H](CO)O2)cc1Br ; strain: G ; read by: plaque count ; result: 8.41 µM

An empty or dashed field is not shown. Lines come from different laboratories, so protocols vary. a–b is a range or a potency band.